{"source": "patent US4909940A", "about": "“Extraction of process chemicals from labile biological mixtures with organic alcohols or with halogenated hydrocarbons” (priority 1987, dated 1990)", "key": {"VSV": {"tested_on": "VSV", "assay": "Virus kill in whole plasma: VSV", "format": "cell-based", "details": "2% TNBP at 37° C. or 1% TNBP/1% detergent at 30° C., 4 hours"}, "Sindbis Virus": {"tested_on": "Sindbis Virus", "assay": "Virus kill in whole plasma: Sindbis virus", "format": "cell-based", "details": "2% TNBP at 37° C. or 1% TNBP/1% detergent at 30° C., 4 hours"}, "HIV": {"tested_on": "HIV", "assay": "Virus kill in whole plasma: HIV", "details": "2% TNBP at 37° C., 4 hours"}, "HBV": {"tested_on": "HBV", "assay": "Virus kill in whole plasma: HBV", "details": "2% TNBP at 37° C., 4 hours"}, "NANBHV": {"tested_on": "NANBHV", "assay": "Virus kill in whole plasma: NANBHV", "details": "2% TNBP at 37° C., 4 hours"}}}
{"smiles": "CCCCOP(=O)(OCCCC)OCCCC", "values": [{"measurement": "Virus Kill (log10 decline)", "setting": "VSV", "result": 4.2, "unit": "log10"}, {"measurement": "Virus Kill (log10 decline)", "setting": "Sindbis Virus", "result": 5.2, "unit": "log10"}, {"measurement": "Virus Kill (log10 decline)", "setting": "HIV", "result": 3.6, "unit": "log10"}, {"measurement": "Virus Kill (log10 decline)", "setting": "HBV", "result": 6.0, "unit": "log10"}, {"measurement": "Virus Kill (log10 decline)", "setting": "NANBHV", "result": 5.0, "unit": "log10"}]}
